Measured values reported in PubChem BioAssay AID504621 (Broad Institute, 2011).
The entries are a selection whose mix differs from that of the whole data set. The source made the active and inactive calls.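 Rule for the calls: active = every replicate shows inhibition above about 80%, whatever the replicate mean (limit read from the data); inconclusive = mean inhibition reaches the set limit but some replicate falls short; inactive = the rest.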

Experiment: growth inhibition of PfHsp90-expressing yeast, primary screen, antimalarial PfHsp90 inhibitor project, S. cerevisiae, BacTiter-Glo luminescence, single point, set 2 (AID 504621);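 note: yeast relying on Plasmodium falciparum Hsp90 in place of its own; 0% = DMSO neutral controls and 100% = 20 µM radicicol positive controls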
Settings: BacTiter-Glo ATP, 48 h, at 9.4 µM, hits give high values, yeast lacking PDR1 and PDR3 efflux regulators

SMILES	inhibition
Cc1cc(SC(NC(=O)c2ccccc2)C(Cl)(Cl)Cl)nc(C(C)C)n1 (configuration not stated)	inactive: 7.33%
CCCCOc1ccc(C(=O)NCC2(N3CCCCC3)CCCCC2)cc1OC	inactive: -4.72%
CCOC(=O)Nc1ccc([As](=O)(O)O)c(O)c1	inactive: -3.86%
CC1CCNP(=O)(N(CCCl)CCCl)O1 (configuration not stated)	inactive: -0.807%
O=P(Nc1ccccn1)(c1cccc2ccccc12)c1cccc2ccccc12	inactive: 2.46%
Cc1cc(SC(NC=O)C(Cl)(Cl)Cl)ncn1 (configuration not stated)	inactive: -19.5%
O=[N+]([O-])c1ccc(Nc2ccc(Oc3ccc([N+](=O)[O-])cc3[N+](=O)[O-])cc2)c([N+](=O)[O-])c1	inactive: 6.23%
CCOC(=O)Nc1cccc([As](=O)(O)O)c1	inactive: -15.8%
O=C(Nc1ccncc1[N+](=O)[O-])c1ccc([N+](=O)[O-])cc1[N+](=O)[O-]	inactive: -1.57%
O=C(COc1ccccc1)OC1CN2CCC1CC2 (configuration not stated)	inactive: -7.72%
COP1(=S)c2c(C)nn(CCC#N)c2N=C(c2ccc(F)cc2)N1C (configuration not stated)	inactive: -29%
CCC(C)N(CC(C)C)C(=S)SC(NC(C)=O)C(Cl)(Cl)Cl (configuration not stated)	inactive: -127%
O=C(OC1CN2CCC1CC2)c1cccc([N+](=O)[O-])c1 (configuration not stated)	inactive: -8.48%
CCOC(=O)c1ccc(NC(=O)C(C)(CCl)SC)cc1 (configuration not stated)	inactive: -24.5%
O=P1(N(CCCl)CCCl)OCCCN1CCCl (configuration not stated)	inactive: -2.19%
O=P1(N(CCCl)CCCl)Nc2ccccc2N1	inactive: 6.31%
COc1cc(I)ccc1[As](=O)(O)O	inactive: 5.76%
COc1ccc2nc(NP(=O)(c3ccccc3)c3ccccc3)sc2c1	inactive: -11.1%
Cc1c2c(nc3ccccc13)SC(C(Cl)Cl)C2 (configuration not stated)	inactive: -6.63%
Cc1cc(=O)[nH]c(N[N+](=O)[O-])n1	inactive: 3.74%
O=C(OC1CN2CCC1CC2)C12CC3CC(CC(C3)C1)C2 (configuration not stated)	inactive: 14.9%

SMILES	inhibition
O=[N+]([O-])c1cc(Oc2ccc([N+](=O)[O-])cc2C(F)(F)F)cc([N+](=O)[O-])c1	inactive: -72.3%
COc1ccc(N/C(=N/P(=O)(N2CCOCC2)N2CCOCC2)N2CCOCC2)cc1	inactive: -23%
Cc1ccc(OP(=O)(Nc2ccc([N+](=O)[O-])cn2)Oc2ccc(C)cc2)cc1	inactive: 7.12%
Cc1ccc2nc3c(c(C)c2c1)CC(C(Cl)Cl)S3 (configuration not stated)	inactive: -21.6%
COc1cc(C(=O)NCC2(N3CCOCC3)CCCCC2)ccc1OCC(C)C	inactive: 7.27%
O=[As](O)(c1ccc(O)cc1)c1ccccc1O	inactive: 11%
C[As](=O)(O)c1cccc(C(=O)O)c1	inactive: 13.9%
O=[N+]([O-])c1cc([N+](=O)[O-])c(-c2ccn[nH]2)s1	inactive: -6.65%
CC(C)NC(=O)NP(=O)(Oc1ccccc1)Oc1ccccc1	inactive: 16.1%
O=C(OC1CN2CCC1CC2)c1cccc2[nH]cnc12 (configuration not stated)	inactive: -2.62%
CCN(CC)C(=S)SC(NC=O)C(Cl)(Cl)Cl (configuration not stated)	inactive: -12.6%
COC(=O)C1(C)COP(=O)(N2CCCCCC2)OC1 (configuration not stated)	inactive: -2.91%
CC(C)c1ccc(OP(=O)(Nc2ccccn2)Oc2ccccc2F)cc1 (configuration not stated)	inactive: 12.2%
Nc1ccccc1[As](=O)(O)c1ccccc1	inactive: -17.9%
O=C(O)COc1ccc([As](=O)(O)O)cc1[N+](=O)[O-]	inactive: -15.8%
O=P(Nc1nccs1)(Oc1ccccc1)Oc1ccccc1	inactive: 7.6%
O=P(Nc1nccs1)(c1ccccc1)c1nc2ccccc2s1 (configuration not stated)	inactive: 7.16%
CCOP1(=S)c2c(C)nn(CCC#N)c2N=C(c2ccccc2F)N1C (configuration not stated)	inactive: -1.94%
CS(=O)(=O)c1cc([N+](=O)[O-])c2no[n+]([O-])c2c1	inactive: 4.42%
CCOP1(=S)c2c(C)nn(CCC#N)c2N=C(c2ccc(F)cc2)N1C (configuration not stated)	inactive: -0.687%
CN(C(=O)Cc1ccccc1)[C@@H]1CC[C@]2(CCCO2)C[C@H]1N1CCCC1	inactive: -5.44%

SMILES	inhibition
N#CCCN(C(=O)COC(=O)C(O)(c1ccccc1)c1ccccc1)c1ccc(F)cc1	inactive: 3.26%
CN(C(=O)Cc1ccc(Cl)c(Cl)c1)[C@H]1CC[C@@]2(CCCO2)C[C@@H]1N1CCCC1	inactive: -1.35%
CN(C)C(=O)c1cc([N+](=O)[O-])cc2c1-c1c(cc([N+](=O)[O-])cc1[N+](=O)[O-])C2=O	inactive: -9.11%
O=[As](O)(c1cccc(O)c1)c1cccc(O)c1	inactive: 0.523%
O=C(OC1CN2CCC1CC2)c1ccc(Cl)cc1 (configuration not stated)	inactive: 8.29%
CS(=O)(=O)c1ccc(Cl)c(NC(=O)COC(=O)C(O)(c2ccccc2)c2ccccc2)c1	inactive: 21.4%
O=[As](O)(O)c1cccnc1	inactive: 7.76%
COc1cc(C(=O)NCC2(N3CCOCC3)CCCCC2)cc(Cl)c1OC(C)C	inactive: 10.1%
CCOP(=O)(Nc1cccc2ccccc12)OCC	inactive: -0.385%
COc1cc(C2NCCC3(OCCO3)C2(C)C)cc(OC)c1OC (configuration not stated)	inactive: -20.5%
Nc1cccc2c([As](=O)(O)O)cccc12	inactive: -15.6%
Cc1ccc(NCCc2c([N+](=O)[O-])cc([N+](=O)[O-])cc2[N+](=O)[O-])cc1	inactive: -12.5%
CCCOP(=S)(Nc1nc(N)cc(=O)[nH]1)OCCC	inactive: -8.2%
CC(C)(C)C(=O)NC(Sc1ncccn1)C(Cl)(Cl)Cl (configuration not stated)	inactive: -2.37%
CCOP(=O)(NC(=NC(C)c1ccccc1)NC(C)c1ccccc1)OCC (configuration not stated)	inactive: 4.14%
CCC1=CC2Cc3nc4ccc(Cl)cc4c(N)c3C(C1)C2 (configuration not stated)	inactive: 0.899%
CCOP(=O)(Nc1ccc(C)cn1)OCC	inactive: -18.1%
CC(C)/C=N\N=C(\N)N[N+](=O)[O-]	inactive: -34.2%
CN(C(=O)Cc1ccc(Cl)c(Cl)c1)[C@@H]1CCCC[C@H]1N1CCCC1	inactive: 11.3%
CC1(CBr)Cn2c(nc3ccccc3c2=O)S1 (configuration not stated)	inactive: 0.3%
